In experiment [1] the target is integrin α5β1 on K562 cells (human (endogenous in K562)) (UniProt P08648).
Experiment [2] shares this target. The source holds these as a separate data set.

Like-named read-outs stand apart in the source and are kept apart here.

Regarding “Rhodostomin M52D/P53M mutant (natural protein)”, the IC50 of inhibition of K562 cell (integrin α5β1) adhesion to fibronectin in experiment [1] worked out at 4050 nM.
On the same count and under the same terms, for “Rhodostomin M52G/P53W mutant (natural protein)” the value was 1240 nM.
With “Rhodostomin P48Y mutant (natural protein)”, the IC50 of inhibition of K562 cell (integrin α5β1) adhesion to fibronectin in experiment [2] is 311 nM.
“Rhodostomin P48G mutant (natural protein)”: the IC50 of inhibition of K562 cell (integrin α5β1) adhesion to fibronectin in experiment [2] was found to be 92.2 nM.
The same measure, in the same setting: for “Rhodostomin P48L mutant (natural protein)” the value was 283 nM.
On the same count and under the same terms, for “Rhodostomin P48W mutant (natural protein)” the value was 193 nM.
Regarding “Rhodostomin P48A/M52D/P53M mutant (natural protein)”, in experiment [1], the IC50 of inhibition of K562 cell (integrin α5β1) adhesion to fibronectin stood at 351 nM.
The same measure, in the same setting: for “Rhodostomin P48A/M52G/P53W mutant (natural protein)” the value was 191 nM; for “Rhodostomin M52W mutant (natural protein)”, 404 nM.
“Rhodostomin P48F mutant (natural protein)” returned an IC50 of inhibition of K562 cell (integrin α5β1) adhesion to fibronectin in experiment [2] of 282 nM.
Substance “Rhodostomin P48A/M52N mutant (natural protein)” returned an IC50 of inhibition of K562 cell (integrin α5β1) adhesion to fibronectin in experiment [1] of 44.1 nM.
The same measure, in the same setting: for “Rhodostomin M52N mutant (natural protein)” the value was 357 nM; for “Rhodostomin P48A/M52W mutant (natural protein)”, 52 nM.
Still for that read-out and setting: for “Rhodostomin P48A/M52D/P53L mutant (natural protein)” the value was 527 nM; for “Rhodostomin M52D/P53L mutant (natural protein)”, 3020 nM.
Consider “Rhodostomin P48I mutant (natural protein)”, for which the IC50 of inhibition of K562 cell (integrin α5β1) adhesion to fibronectin in experiment [2] is 282 nM.
